Measurements from patent EP0695746A2, “Antiviral compounds and pharmaceutical compositions” (PHARMA MAR, S.A., priority 1994, dated 1996).

Tested on: HIV-1 RF
Experiment: XTT cytoprotection assay (called Cytotoxic Assay in the tables), antiviral activity
Format: cell-based
Details: listed as PM-92131 (±) (289-8)

Structure (SMILES): CC1(C)CCC[C@@]2(C)[C@H](c3ccoc3)C(=O)[C@H]3O[C@@]312 (racemic) [PM-92131 (±)]
- SI (Table II): >5
- SI (Table III): >5
